Anti-infective test results gathered from many reports (values: NIAID ChemDB through PubChem).

Shared fields: tests in culture; species: Candida albicans

Zone: diameter of growth inhibition. Lines come from different laboratories, so protocols vary. A number after MIC or MFC names an inhibition level or a share of isolates. Blank or dashed fields: not listed here. Percent inhibition refers to the dose given; in toxicity tests it is the harm to the cells.

compound	dose	mutations	read by	strain or isolate	measure	result
NCCCC[C@H](NC(=O)[C@H](Cc1c[nH]c2ccccc12)NC(=O)[C@H](CCCCN)NC(=O)[C@@H](N)CCCCN)C(=O)O	200 µM			ATCC 10231	inhibition	9%
CC(C)(O)c1cn(-c2cccc3ccccc23)nn1	2048 µg/mL		broth dilution	URM 4609	inhibition	0%
Cc1c(O)cccc1C(=O)N[C@@H](CSc1ccccc1)[C@H](O)CN1C[C@H]2CCCC[C@H]2C[C@H]1C(=O)NC(C)(C)C				I121	MIC	64 µg/mL
CN(CCCC#CC(C)(C)C)c1cccc2c1CCC(=O)N2				Clinical isolate 14	MIC	31.25 µg/mL
O=C1CCCC2=C1C(c1cccc(C3C4=C(CCCC4=O)OC4=C3C(=O)CCC4)c1)C1=C(CCCC1=O)O2	40 µg/disc		agar diffusion	ATCC 10231	zone	7 mm
CCCCCOc1ccc(-c2ccc(-c3ccc(C(=O)N[C@H]4CCCNC(=O)C5C[C@@H](O)N5C(=O)C(C(C)O)NC(=O)C(CCc5ccc(O)cc5)NC(=O)C5C[C@@H](O)CN5C(=O)C(C(C)O)NC4=O)cc3)cc2)cc1				ATCC CCH442	MIC	0.78 µg/mL
N=C(N)c1ccc2nc(-c3ccc(-c4nc5ccc(C(=N)N)cc5[nH]4)[nH]3)[nH]c2c1				Isolate CA2601 fluconazole-resistant	MFC	3.12 µg/mL
CCOc1cc2c(cc1F)n([O-])c(C)c(Cl)[n+]2=O				Clinical isolate 1	MIC	62.5 µg/mL
CC(C)(O)c1cn(-c2ccc3ccccc3c2)nn1	2048 µg/mL		broth dilution	URM 3719	inhibition	0%
Cc1c(Sc2ccccc2)[n+](=O)c2cc(C(F)(F)F)ccc2n1[O-]				Clinical isolate 12	MIC	31.25 µg/mL
C=CCc1ccc(OC)c(OC)c1			turbidity	2784	MIC90	340 µg/mL
Cc1ccc(-n2cc(C(C)(C)O)nn2)cc1C	2048 µg/mL		broth dilution	URM 4386	inhibition	0%
CCCCCCCC(=O)N[C@H]1CC2C(=O)NCCC[C@H](NC(=O)c3ccc(-c4ccc(-c5ccc(OCCCCC)cc5)cc4)cc3)C(=O)NC(C(C)O)C(=O)N3C[C@H](O)CC3C(=O)NC(CCc3ccc(O)cc3)C(=O)NC(C(C)O)C(=O)N2C1				ATCC CCH442	MIC	50 µg/mL
COc1ccc(C2CC(=O)C3=C(C2)OC2=C(C(=O)CC(c4ccc(OC)c(OC)c4)C2)C3c2cccc(C3C4=C(CC(c5ccc(OC)c(OC)c5)CC4=O)OC4=C3C(=O)CC(c3ccc(OC)c(OC)c3)C4)c2)cc1OC	20 µg/disc		agar diffusion	ATCC 10231	zone	7 mm
CC(=O)OC[C@H]1O[C@@H](O[C@@H]2[C@@H](N=[N+]=[N-])[C@H](O)[C@H](O)[C@H]3OC(C)(C)O[C@H]32)[C@H](OC(C)=O)[C@@H](OC(C)=O)[C@H]1OC(C)=O	31.25 µg/mL		broth dilution / turbidity	ATCC 10231	inhibition	14.13%
CCCCCCCCOc1ccc(-c2ccc(-c3ccc(CN[C@H]4CCCNC(=O)C5C[C@H](N)CN5C(=O)C(C(C)O)NC(=O)C(CCc5ccc(O)cc5)NC(=O)C5C[C@@H](O)CN5C(=O)C(C(C)O)NC4=O)cc3)cc2)cc1				ATCC 10231	MIC	0.2 µg/mL
O=[n+]1c(Sc2ccccc2)c(CBr)n([O-])c2ccccc21				Clinical isolate 15	MIC	31.25 µg/mL
CCCCCOc1ccc(-c2ccc(-c3ccc(C(=O)N[C@H]4CCCNC(=O)C5C[C@H](N=C(N)N)CN5C(=O)C(C(C)O)NC(=O)C(CCc5ccc(O)cc5)NC(=O)C5C[C@@H](O)CN5C(=O)C(C(C)O)NC4=O)cc3)cc2)cc1				ATCC CCH442	MIC	0.2 µg/mL
C[C@H]1[C@H](O)[C@@H](C)/C=C/C=C/C=C/C=C/C=C/C=C/C=C/[C@H](O[C@@H]2O[C@H](C)[C@@H](O)[C@H](N)[C@@H]2O)C[C@@H]2O[C@](O)(C[C@@H](O)C[C@@H](O)CC[C@H](O)[C@@H](O)C[C@@H](O)CC(=O)O[C@H]1C)C[C@H](O)[C@H]2C(=O)O	1 µg/mL	cph1/efg1 (EFG1)	broth dilution	ATCC 90028	inhibition	100%
CC1(C)CCC2=C(C1=O)C(c1ccc(C3C4=C(CCC(C)(C)C4=O)OC4=C3C(=O)C(C)(C)CC4)cc1)C1=C(CCC(C)(C)C1=O)O2	40 µg/disc		agar diffusion	ATCC 10231	zone	0 mm
CCCCCOc1ccc(-c2ccc(-c3ccc(C(=O)N[C@H]4CCCNC(=O)C5C[C@H](NC(=O)c6cn[nH]c6)CN5C(=O)C(C(C)O)NC(=O)C(CCc5ccc(O)cc5)NC(=O)C5C[C@@H](O)CN5C(=O)C(C(C)O)NC4=O)cc3)cc2)cc1				ATCC CCH442	MIC	0.39 µg/mL